Measured values from several laboratories, pooled; numbers as filed in NIAID ChemDB.

Common to all: target-level tests

Lines come from different laboratories, so protocols vary.

structure,tested at,protein,organism,read-out,result
O=C(O)/C=C/c1ccc(NC(=O)CNC(=O)c2ccc3c(c2)nc(-c2ccoc2)n3C2CCCCC2)cc1,,NS5B polymerase,Hepatitis C virus,IC50,<0.5 µM
O=C(O)c1ccc2c(c1)nc(-c1ccc3nc(-c4cccc(-c5ccc(Cl)cc5)c4)ccc3c1)n2C1CCCCC1,100 µM,NS5B polymerase,Hepatitis C virus,inhibition,99.39%
CC(C)=CCN(C(=O)c1ccc(Cl)cc1Cl)c1cc(-c2ccccc2)sc1C(=O)O,,NS3 ATPase,Hepatitis C virus,IC50,<5 µM
CC[C@@H](C=O)NC(=O)[C@@H]1C[C@@H](OCc2ccccc2)CN1C(=O)[C@@H](NC(=O)c1cccc(C)c1O)C(C)C,,NS3 protease,Hepatitis C virus,Ki,>100 µM
CNC(=O)c1c(-c2ccc(F)cc2)oc2cc(N(CS(C)(=O)=O)OC)c(OCc3ccc(C#N)cc3)cc12,,Nonstructural protein 5B,Hepatitis C virus,IC50,≤0.5 µM
O=C(Cc1c[nH]c2ccccc12)Nc1cscc1-c1nc(C(=O)O)c(O)c(=O)[nH]1,,HCV polymerase,Hepatitis C virus,IC50,<25 µM
O=C(O)/C=C/c1ccc(NC(=O)C2(NC(=O)c3ccc4c(c3)nc(-c3ccccc3)n4C3C[C@H]4CC[C@@H]3C4)CCCC2)cc1,,NS5B polymerase,Hepatitis C virus,IC50,0.5–5 µM
CC[C@@H](C=O)NC(=O)[C@@H]1C[C@@H](OC(=O)c2ccc(Cl)c(Cl)c2)CN1C(=O)[C@@H](NC(=O)[C@@H](NC(=O)c1cnccn1)C(C)C)C(C)C,,NS3 protease,Hepatitis C virus,Ki,1–100 µM
COc1ccc(-c2cc(NS(=O)(=O)c3ccc(C)cc3)c(C(N)=O)s2)cc1,,NS3 ATPase,Hepatitis C virus,IC50,5–20 µM
CC[C@@H](C=O)NC(=O)[C@@H]1C[C@@H](OCc2cccc3ccccc23)CN1C(=O)[C@@H](NC(=O)[C@@H](NC(=O)c1cnccn1)C(C)C)C(C)C,,NS3 protease,Hepatitis C virus,Ki,1–100 µM
Cc1ccccc1S(=O)(=O)Nc1cc(-c2ccc(Cl)cc2Cl)sc1C(=O)O,,NS3 ATPase,Hepatitis C virus,IC50,5–20 µM
CC[C@@H](C=O)NC(=O)[C@@H]1C[C@@H](OC(=O)Nc2ccc(Cl)c(Cl)c2)CN1C(=O)[C@@H](NC(=O)[C@@H](NC(=O)c1cnccn1)C(C)C)C(C)C,,NS3 protease,Hepatitis C virus,Ki,1–100 µM
CCOC(=O)C1=CN(N2CCN(c3nc(Nc4ccc5[nH]ncc5c4)nc(OC)n3)CC2)C(SC)N=C1,10 µg/mL,Nonstructural protein 5B,Hepatitis C virus,inhibition,49%
CNC(=O)c1c(-c2ccc(F)cc2)oc2cc(N(C)S(C)(=O)=O)c(OCc3nc(C(=O)O)cs3)cc12,,Nonstructural protein 5B,Hepatitis C virus,IC50,≤0.5 µM
O=C(O)c1cc2nc(-c3ccc(Cl)cc3Cl)cc(-c3ccc(Oc4ccccc4)cc3)n2n1,,RNA-dependent RNA polymerase,Hepatitis C virus,IC50,>10 µM
CC(C)N(c1cc(-c2ccccc2)sc1C(=O)O)S(=O)(=O)c1ccccc1Cl,,NS3 ATPase,Hepatitis C virus,IC50,5–20 µM
CC(C)Cc1c(-c2ccc(OCc3ccccc3)cc2)cnc2cc(C(=O)O)nn12,,RNA-dependent RNA polymerase,Hepatitis C virus,IC50,>10 µM
O=C(O)c1nc(-c2sccc2NC(=O)C2Cc3ccccc3CN2)[nH]c(=O)c1O,,HCV polymerase,Hepatitis C virus,IC50,<25 µM
COc1ccc(-c2ccc(Cl)cc2)c(-c2ccc3cc(-c4nc5cc(C(=O)O)ccc5n4CCN(C)C)ccc3n2)c1,33 µM,NS5B polymerase,Hepatitis C virus,inhibition,56.75%
O=C(O)c1cc2nc(-c3ccc(OCc4ccccc4)cc3)c(CC3CCCCC3)c(=O)n2[nH]1,,RNA-dependent RNA polymerase,Hepatitis C virus,IC50,1–10 µM
O=C(O)/C=C/c1ccc(NC(=O)C2(NC(=O)c3ccc4c(c3)nc(-c3ccccc3)n4C3CCCC3)CCCC2)cc1,,NS5B polymerase,Hepatitis C virus,IC50,0.5–5 µM
O=C(N[C@@H](Cc1ccccc1)C(=O)O)c1cnn2c(C3CCCCC3)c(-c3ccc(OCc4ccccc4)cc3)cnc12,,RNA-dependent RNA polymerase,Hepatitis C virus,IC50,1–10 µM
COc1ccc(-c2cc(Cl)cc(Cl)c2)c(-c2ccc3cc(-c4nc5cc(C(=O)O)ccc5n4C4CCCCC4)ccc3n2)c1,33 µM,NS5B polymerase,Hepatitis C virus,inhibition,102%
Cc1ccc(S(=O)(=O)N(C)c2cc(-c3ccccc3)sc2C(=O)O)c(C)c1Cl,,NS3 ATPase,Hepatitis C virus,IC50,5–20 µM
CNC(=O)c1c(-c2ccc(F)cc2)oc2cc(N3CCOCC3)c(OCc3nccn3Cc3ccccc3)cc12,,Nonstructural protein 5B,Hepatitis C virus,IC50,≤0.5 µM
CC(C)C(=O)N(Cc1ccc(F)cc1F)c1cc(-c2ccccc2)sc1C(=O)O,,NS3 ATPase,Hepatitis C virus,IC50,5–20 µM
Cc1oc(-c2ccc(NC(=O)[C@@H](C)NC(=O)c3ccc4c(c3)nc(-c3ccoc3)n4C3CCCCC3)cc2)cc1C(=O)O,,NS5B polymerase,Hepatitis C virus,IC50,0.5–5 µM
COc1nc(NCCCn2ccnc2)nc(Nc2ccc3[nH]ncc3c2)n1,1 µg/mL,DNA polymerase,Hepatitis B virus,inhibition,56%
COc1ccc(-c2ccc(C(=O)O)cc2)c(-c2ccc3cc(-c4nc5cc(C(=O)O)ccc5n4C4CCCCC4)ccc3n2)c1,33 µM,NS5B polymerase,Hepatitis C virus,inhibition,100%
CSc1ccccc1NC(=O)Nc1cscc1-c1nc(C(=O)O)c(O)c(=O)[nH]1,,HCV polymerase,Hepatitis C virus,IC50,<25 µM
Cc1ccc(C(=O)N(C)c2cc(-c3cccc(Cl)c3)sc2C(=O)O)cc1,,NS3 ATPase,Hepatitis C virus,IC50,<5 µM
CCc1cc2c(C(=O)NC)c(-c3ccc(F)cc3)oc2cc1C(C)=O,,Nonstructural protein 5B,Hepatitis C virus,IC50,≤0.5 µM
Cc1ccc(-c2nc(C(=O)O)c(O)c(=O)[nH]2)cc1,,HCV polymerase,Hepatitis C virus,IC50,<100 µM
O=C(O)c1ccc2c(c1)nc(-c1ccc3ncc(-c4ccccc4)cc3c1)n2C1CCCCC1,33 µM,NS5B polymerase,Hepatitis C virus,inhibition,94.16%
N#Cc1cnn2c(C3CCCCC3)c(-c3ccc(O)cc3)cnc12,,RNA-dependent RNA polymerase,Hepatitis C virus,IC50,>10 µM
O=C(Nc1cscc1-c1nc(C(=O)O)c(O)c(=O)[nH]1)c1ccccc1Cl,,HCV polymerase,Hepatitis C virus,IC50,<25 µM
O=C(O)c1ccc2c(c1)nc(-c1ccc3nc(-c4ccccc4Br)c(-c4ccccc4)cc3c1)n2C1CCCCC1,33 µM,NS5B polymerase,Hepatitis C virus,inhibition,98.7%
COc1nc(NCCO)nc(Nc2ccc3[nH]ncc3c2)n1,0.1 µg/mL,Nonstructural protein 5B,Hepatitis C virus,inhibition,10%
O=C(O)/C=C/c1ccc(NC(=O)C2(NC(=O)c3ccc4c(c3)nc(-c3ccco3)n4C3CCCC3)CCCC2)cc1,,NS5B polymerase,Hepatitis C virus,IC50,0.5–5 µM
COc1ccc(-c2cnc3c(-c4nn[nH]n4)cnn3c2-c2ccc(OC)cc2)cc1,,RNA-dependent RNA polymerase,Hepatitis C virus,IC50,>10 µM
Nc1ccc(-c2ccc3cc(-c4nc5cc(C(=O)O)ccc5n4C4CCCCC4)ccc3n2)cc1,100 µM,NS5B polymerase,Hepatitis C virus,inhibition,95.33%
O=C(NC1(C(=O)Nc2ccc3[nH]c(C(=O)O)c(I)c3c2)CCNCC1)c1ccc2c(c1)nc(-c1ccoc1)n2C1CCCCC1,,NS5B polymerase,Hepatitis C virus,IC50,0.5–5 µM
O=C(NCCc1ccccc1)Nc1ccsc1-c1nc(C(=O)O)c(O)c(=O)[nH]1,,HCV polymerase,Hepatitis C virus,IC50,<25 µM
CC(NC(=O)c1ccc2c(c1)nc(-c1ccoc1)n2C1CCCCC1)C(=O)Nc1ccc(Cl)c(/C=C/C(=O)O)c1,,NS5B polymerase,Hepatitis C virus,IC50,0.5–5 µM
O=C(O)c1cc2nc(-c3ccc(C(F)(F)F)cc3)cc(-c3cc(Cl)cc(Cl)c3)n2n1,,RNA-dependent RNA polymerase,Hepatitis C virus,IC50,>10 µM
C[C@@H](NC(=O)c1ccc2c(c1)nc(-c1ccc[nH]1)n2C1CCCCC1)C(=O)Nc1ccc(/C=C/C(=O)O)cc1,,NS5B polymerase,Hepatitis C virus,IC50,<0.5 µM
COc1nc(NCCc2c[nH]c3ccccc23)nc(Nc2ccc3cn[nH]c3c2)n1,0.1 µg/mL,Nonstructural protein 5B,Hepatitis C virus,inhibition,6%
CN(c1ccccc1)c1cc(-c2ccc(Cl)cc2)nc2cc(C(=O)O)nn12,,RNA-dependent RNA polymerase,Hepatitis C virus,IC50,>10 µM
CC[C@@H](C=O)NC(=O)[C@H](CC(C)C)NC(=O)[C@@H](NC(=O)[C@@H](NC(=O)c1ccc(OC)nc1OC)C(C)C)C(C)C,,NS3 protease,Hepatitis C virus,Ki,1–100 µM
COc1nc(Nc2ccc3[nH]ncc3c2)nc(N2CCN(C)CC2)n1,10 µg/mL,Nonstructural protein 5B,Hepatitis C virus,inhibition,45%
O=C(NCc1cccc(F)c1)Nc1cccc(-c2nc(C(=O)O)c(O)c(=O)[nH]2)c1,,HCV polymerase,Hepatitis C virus,IC50,<100 µM

For reference, 7 entries again:

CC[C@@H](C=O)NC(=O)[C@H](CC(C)C)NC(=O)[C@@H](NC(=O)[C@@H](NC(=O)c1ccc(OC)nc1OC)C(C)C)C(C)C ; protein: NS3 protease ; organism: Hepatitis C virus ; read-out: Ki ; result: 1–100 µM
CC(NC(=O)c1ccc2c(c1)nc(-c1ccoc1)n2C1CCCCC1)C(=O)Nc1ccc(Cl)c(/C=C/C(=O)O)c1 ; protein: NS5B polymerase ; organism: Hepatitis C virus ; read-out: IC50 ; result: 0.5–5 µM
COc1ccc(-c2cc(NS(=O)(=O)c3ccc(C)cc3)c(C(N)=O)s2)cc1 ; protein: NS3 ATPase ; organism: Hepatitis C virus ; read-out: IC50 ; result: 5–20 µM
COc1nc(NCCO)nc(Nc2ccc3[nH]ncc3c2)n1 ; tested at: 0.1 µg/mL ; protein: Nonstructural protein 5B ; organism: Hepatitis C virus ; read-out: inhibition ; result: 10%
O=C(O)c1cc2nc(-c3ccc(C(F)(F)F)cc3)cc(-c3cc(Cl)cc(Cl)c3)n2n1 ; protein: RNA-dependent RNA polymerase ; organism: Hepatitis C virus ; read-out: IC50 ; result: >10 µM
CC(C)=CCN(C(=O)c1ccc(Cl)cc1Cl)c1cc(-c2ccccc2)sc1C(=O)O ; protein: NS3 ATPase ; organism: Hepatitis C virus ; read-out: IC50 ; result: <5 µM
Cc1ccc(-c2nc(C(=O)O)c(O)c(=O)[nH]2)cc1 ; protein: HCV polymerase ; organism: Hepatitis C virus ; read-out: IC50 ; result: <100 µM

Percent inhibition refers to the dose given; in toxicity tests it is the harm to the cells. ICn is the concentration giving n% inhibition. An empty or dashed field is not shown. a–b is a range or a potency band.